Compound potency records, mixed from different reports. Data source: NIAID ChemDB in PubChem.

Common to all: tests in culture; organism: Mycobacterium avium; measure: MIC

Two numbers with a dash give a range or band. Neighbouring rows are from separate reports.

{"structure": "O=[N+]([O-])c1cc(Sc2nc3ccc(I)cc3[nH]2)cc([N+](=O)[O-])c1", "strain or isolate": "MY330/88", "result": "32 µM"}
{"structure": "COc1ccc2oc(=O)n(-c3ccc(C#N)cc3)c(=O)c2c1", "strain or isolate": "CNCTC MY330/88", "result": "32 µM"}
{"structure": "C(=C\\c1ccccc1)/CO/N=C(/Cn1ccnc1)c1ccccc1", "strain or isolate": "103317", "result": "25.2 µM"}
{"structure": "FC(F)(F)C(F)(F)c1nc2cc(Cl)c(Cl)cc2[nH]1", "strain or isolate": "MY330/88", "result": "32 µM"}
{"structure": "CCCCC(CC)CN(CC(CC)CCCC)C[C@H]1O[C@H](O[C@H]2O[C@H](CN(CC(CC)CCCC)CC(CC)CCCC)[C@@H](O)[C@H](O)[C@H]2O)[C@H](O)[C@@H](O)[C@@H]1O", "strain or isolate": "NJ3404", "result": "64 µg/mL"}
{"structure": "O=C(NCc1ccc(Br)cc1)c1ncccc1O", "strain or isolate": "CNCTC MY330/88", "result": "32 µM"}
{"structure": "CCCC(C)S/C(N)=N/N=C/c1ccc2ccccc2n1", "strain or isolate": "CNCTC D5/93", "result": "125 µM"}
{"structure": "CC(C)(C)n1cc(C(=O)O)c(=O)c2cc(F)c(N3CCNCC3)nc21", "strain or isolate": "LR114F", "result": "0.5 µg/mL"}
{"structure": "O=C(NCc1ccc(Cl)c(Cl)c1)c1ncccc1S", "strain or isolate": "CNCTC MY330/88", "result": "16 µM"}
{"structure": "CCCCCC(N)=NC[C@H]1O[C@H](O[C@H]2O[C@H](CN=C(N)CCCCC)[C@@H](O)[C@H](O)[C@H]2O)[C@H](O)[C@@H](O)[C@@H]1O", "strain or isolate": "NJ168", "result": ">128 µg/mL"}
{"structure": "O=C(NCc1ccc([N+](=O)[O-])cc1)c1ncccc1O", "strain or isolate": "CNCTC MY330/88", "result": "125 µM"}
{"structure": "CCCCC(CC)CNC[C@H]1O[C@H](O[C@H]2O[C@H](CNCC(CC)CCCC)[C@@H](O)[C@H](O)[C@H]2O)[C@H](O)[C@@H](O)[C@@H]1O", "strain or isolate": "NJ168", "result": "64 µg/mL"}
{"structure": "CCCCCOc1ccc(NC(=O)OCCN(C)C)cc1", "strain or isolate": "MY330/88", "result": "32 µM"}
{"structure": "C[C@H]1COc2c(N3CCN(C)CC3)c(F)cc3c(=O)c(C(=O)O)cn1c23", "strain or isolate": "MS-6", "result": "0.5 µg/mL"}
{"structure": "CCCCCCCCOc1ccc(NC(=O)OCCN2CCCCC2)cc1", "strain or isolate": "MY330/88", "result": "8 µM"}
{"structure": "Clc1ccc(/C(Cn2ccnc2)=N\\OC/C=C/c2ccccc2)cc1", "strain or isolate": "103317", "result": "22.7 µM"}
{"structure": "Cc1nc2scc(-c3ccco3)c2c(=O)n1NC(=O)c1ccc(F)cc1", "strain or isolate": "CNCTC MY330/88", "result": "25 µM"}
{"structure": "N#Cc1ccc(-n2c(=O)oc3ccccc3c2=O)cc1", "strain or isolate": "CNCTC MY330/88", "result": "62.5 µM"}
{"structure": "Clc1ccc2c(c1)nc1cc(Nc3ccccc3)c(=NC3CCCCC3)cc-1n2-c1ccccc1", "strain or isolate": "34540", "result": "2 µg/mL"}
{"structure": "O=C(Nc1cccc(F)c1)c1ncccc1S", "strain or isolate": "CNCTC MY330/88", "result": "16 µM"}
{"structure": "CCCCCCS/C(N)=N/N=C/c1ccc2ccccc2n1", "strain or isolate": "CNCTC D5/93", "result": "63 µM"}
{"structure": "c1ccc(-c2ccc(CNc3cccc(-n4ccnc4)c3)cc2)cc1", "strain or isolate": "103317", "result": "11.8 µM"}
{"structure": "O=c1oc2ccc([N+](=O)[O-])cc2c(=O)n1-c1cccc([N+](=O)[O-])c1", "strain or isolate": "CNCTC MY330/88", "result": "250 µM"}
{"structure": "FC(F)(F)C(F)(F)C(F)(F)C(F)(F)c1nc2c(Br)cc(Br)cc2[nH]1", "strain or isolate": "MY330/88", "result": "16 µM"}
{"structure": "Fc1ccc(/C(Cn2ccnc2)=N/OCc2ccc(-c3ccccc3)cc2)cc1", "strain or isolate": "103317", "result": "20.7 µM"}
{"structure": "COc1ccc2oc(=O)n(-c3ccc(C)cc3)c(=O)c2c1", "strain or isolate": "CNCTC MY330/88", "result": "62.5 µM"}
{"structure": "Cc1nc2scc(-c3ccco3)c2c(=O)n1/N=C/c1ccc(Cl)cc1", "strain or isolate": "CNCTC MY330/88", "result": "12 µM"}
{"structure": "CCCCS/C(N)=N/N=C/c1ccc2ccccc2n1", "strain or isolate": "CNCTC MY66/72", "result": "16 µM"}
{"structure": "O=C(Nc1ccc(Br)cc1)c1ccccc1O", "strain or isolate": "CNCTC MY330/88", "result": "31 µM"}
{"structure": "CCS/C(N)=N/N=C/c1ccc2ccccc2n1", "strain or isolate": "CNCTC D5/93", "result": ">1000 µM"}
{"structure": "Clc1ccc(/C(Cn2ccnc2)=N/OCc2ccccc2)cc1", "strain or isolate": "103317", "result": "1.53 µM"}
{"structure": "CCCCCCCCCCCC(N)=NC[C@H]1O[C@H](O[C@H]2O[C@H](CN=C(N)CCCCCCCCCCC)[C@@H](O)[C@H](O)[C@H]2O)[C@H](O)[C@@H](O)[C@@H]1O", "strain or isolate": "NJ3404", "result": "8 µg/mL"}
{"structure": "Clc1ccc(C(Cn2ccnc2)NCc2cccc3ccccc23)cc1", "strain or isolate": "103317", "result": "22.1 µM"}
{"structure": "COc1ccc(NC(=O)c2ccccc2O)cc1", "strain or isolate": "CNCTC MY330/88", "result": "125 µM"}
{"structure": "[N-]=[N+]=NC[C@H]1O[C@H](O[C@H]2O[C@H](CN=[N+]=[N-])[C@@H](O)[C@H](O)[C@H]2O)[C@H](O)[C@@H](O)[C@@H]1O", "strain or isolate": "NJ3350", "result": ">128 µg/mL"}
{"structure": "CCCOc1ccccc1NC(=O)OCCN1CCCCC1", "strain or isolate": "MY330/88", "result": "500 µM"}
{"structure": "Cc1nc2scc(-c3ccco3)c2c(=O)n1/N=C/c1ccc(F)cc1F", "strain or isolate": "CNCTC MY330/88", "result": "4 µM"}
{"structure": "Cc1ccc2c(=O)n(-c3ccc(Br)cc3)c(=O)oc2c1", "strain or isolate": "CNCTC MY330/88", "result": "16 µM"}
{"structure": "O=C(Nc1ccc(C(F)(F)F)cc1)c1ccccc1O", "strain or isolate": "CNCTC MY330/88", "result": "32 µM"}
{"structure": "COc1ccc(C(=O)Nn2c(C)nc3scc(-c4ccco4)c3c2=O)cc1", "strain or isolate": "CNCTC MY330/88", "result": "8 µM"}
{"structure": "CCOc1c(N2CCC(C(C)(C)N)C2)c(F)cc2c(=O)c(C(=O)O)cn(C3CC3)c12", "strain or isolate": "RG4", "result": "0.5 µg/mL"}
{"structure": "c1ccc(-c2ccc(COC(Cn3ccnc3)c3ccccc3)cc2)cc1", "strain or isolate": "103317", "result": "22.6 µM"}
{"structure": "Cc1nc2scc(-c3ccco3)c2c(=O)n1/N=C/c1cccs1", "strain or isolate": "CNCTC MY330/88", "result": "65 µM"}
{"structure": "COc1cccc(NC(=O)OCC[NH+]2CCCC2)c1", "strain or isolate": "MY330/88", "result": "1000 µM"}
{"structure": "CCCCCCCCS(=O)(=O)NC[C@H]1O[C@H](O[C@H]2O[C@H](CNS(=O)(=O)CCCCCCCC)[C@@H](O)[C@H](O)[C@H]2O)[C@H](O)[C@@H](O)[C@@H]1O", "strain or isolate": "NJ1854", "result": "32–64 µg/mL"}
{"structure": "O=[N+]([O-])c1ccc(Sc2nc3c(Br)c(Br)c(Br)c(Br)c3[nH]2)cc1", "strain or isolate": "MY330/88", "result": ">250 µM"}
{"structure": "CCS/C(N)=N/N=C/c1ccccc1O", "strain or isolate": "CNCTC MY66/72", "result": "8 µM"}
{"structure": "O=C(Nc1cccc([N+](=O)[O-])c1)c1ccccc1O", "strain or isolate": "CNCTC MY330/88", "result": "31 µM"}
{"structure": "O=c1oc2ccc(Cl)cc2c(=O)n1-c1ccc(Br)cc1", "strain or isolate": "CNCTC MY330/88", "result": "4 µM"}
{"structure": "NC(N)=NC[C@H]1O[C@H](O[C@H]2O[C@H](CN=C(N)N)[C@@H](O)[C@H](O)[C@H]2O)[C@H](O)[C@@H](O)[C@@H]1O", "strain or isolate": "NJ3404", "result": ">128 µg/mL"}
{"structure": "CCS/C(N)=N/N=C/c1nc2ccccc2o1", "strain or isolate": "CNCTC MY80/72", "result": "250 µM"}
{"structure": "O=c1oc2ccccc2c(=O)n1-c1ccc(Br)cc1", "strain or isolate": "CNCTC MY330/88", "result": "31 µM"}